Measured data: PubChem BioAssay AID504761 (Drosophila RNAi Screening Center, 2011)
Test: 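Insect host genes that dengue virus relies on to spread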 (primary screen). System: D.Mel-2 cells from Drosophila. Reagent: long dsRNA against Drosophila genes. Treatment: infection with dengue virus type 2; dose and infection time not stated. Detection: 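Per well on two replicate plates, imaging gave the percent of cells positive for viral envelope protein, ranked by infection, and a nuclear count of cells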. Reading the numbers: infection score: higher = more virus-infected cells. Active means: 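Low infection ranks in the two replicates (chance level up to 0.065) followed by a retest with a 1.5-fold or larger significant decrease, p below 0.05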. Meaning of the calls: active = confirmed: knock-down lowers infection; inactive = not picked or not confirmed.
In all, the deposit lists about 22,000 reagents; this is a random part of those that have a named target and a result. Of all reagents, 116 (0.52%) were called active. 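Calls depend on retest data that are not deposited; infection was ranked per plate without normalising between plates; the unit of the infection score is not given.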 Further read-outs or replicates are left out here. The record does not give: the amount of reagent, the time to read-out.

infection score, replicate 1, by gene and reagent
CG14855: DRSC14979 1.5 inactive; DRSC27350 5.71 inactive
CG6142: DRSC15976 1.94 inactive
ATPsynF: DRSC04482 28.6 inactive
Wnt10: DRSC02797 3.96 inactive; DRSC29973 25.4 inactive
CG8065: DRSC10959 2.59 inactive
coro: DRSC05007 17.1 inactive; DRSC21417 2.63 inactive
Nepl16: DRSC14650 1.51 inactive
Ptip: DRSC10660 3.99 inactive; DRSC11048 1.56 inactive
CG42675: DRSC12157 11.9 inactive; DRSC21868 4.13 inactive; DRSC24431 2.89 inactive; DRSC26577 1.57 inactive
Spg7: DRSC18469 0.22 inactive
pygo: DRSC14322 3.42 inactive; DRSC25137 1.32 inactive
ATPsynO: DRSC16780 22.1 inactive; DRSC26306 15.3 inactive
CG14840: DRSC14964 4.64 inactive; DRSC27978 11.3 inactive
CG42676: DRSC08392 6.13 inactive; DRSC23487 2.33 inactive
vari: DRSC03202 16.5 inactive
CG7006: DRSC16169 6.81 inactive
mip40: DRSC06541 10.7 inactive
Tgt: DRSC00672 1.75 inactive
CG14153: DRSC10155 0.73 inactive; DRSC22595 7.71 inactive
ric8a: DRSC18093 3.83 inactive; DRSC24387 6.24 inactive
wge: DRSC15246 6.55 inactive; DRSC15672 0.64 inactive
Porin2: DRSC02584 9.83 inactive
CtsL1: DRSC05462 5.98 inactive; DRSC07363 34.9 inactive; DRSC29071 6.23 inactive

No new results follow: an excerpt of the list.
infection score, replicate 1, by gene and reagent
CG14855: DRSC14979 1.5 inactive; DRSC27350 5.71 inactive
CG6142: DRSC15976 1.94 inactive
